Percent effect of library compounds

Results are given as percent effect.
How 0% and 100% were set is not recorded. Most values in the screen are low, and negative values occur.
The entries come from a sample that favours strong results.
Two or more numbers in one place are separate tests of the same structure; such repeats can differ widely.

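Phenotypic screen: M. tuberculosis growth, glucose 7H9 medium, 3 days; the read-out is not stated. Concentration: 50 µM. Higher reads as more growth inhibition (inferred: compounds with an IC50 in retests scored well above the rest). Size under these conditions: about 69,000 compounds, about 760 of them at 50% or above in at least one test.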

{"compound": "CO[C@H]1CCN(Cc2nccs2)C[C@@H]1Cc1ccccc1", "Percent Effect": 55.46}
{"compound": "CC(=O)Nc1ccc(SCC(O)COCc2ccco2)cc1", "stereo": "stereo unspecified", "Percent Effect": "-4.486 and 1.171"}
{"compound": "CCOCCC(=O)Nc1cc(C(N)=O)ccc1N1CCCC(C)C1", "stereo": "stereo unspecified", "Percent Effect": -9.131}
{"compound": "CCOc1cccc(CNc2cncc(-n3cccn3)n2)c1", "Percent Effect": 31.08}
{"compound": "Oc1ccccc1CN1CCCCCC1c1cccs1", "stereo": "stereo unspecified", "Percent Effect": 4.686}
{"compound": "COC(=O)COn1c(SC(C)C)nc2ccccc2c1=O", "Percent Effect": 82.4}
{"compound": "c1ccc(NCc2ccc(Cn3ccnc3)cc2)nc1", "Percent Effect": 13.03}
{"compound": "CO[C@@H]1CCN(C2CCOCC2)C[C@@H]1Cc1ccccc1.O=C(O)C(F)(F)F", "Percent Effect": -43.87}
{"compound": "O=C1NCCCc2[nH]c(Cc3cccc(Cl)c3)nc21", "Percent Effect": -4.65}
{"compound": "CNS(=O)(=O)c1cccc(C(C)NCc2ccc(F)c(F)c2)c1", "stereo": "stereo unspecified", "Percent Effect": "-6.634 and -2.316"}
{"compound": "Cc1nc(CN2C(=O)CCC23CCN(c2ncccn2)CC3)cs1.O=C(O)C(F)(F)F", "Percent Effect": 14.93}
{"compound": "Cc1cc2nc(C(C)C)cc(NCCc3ccncc3)n2n1", "Percent Effect": 11.74}
{"compound": "CC(C)(C)c1cnc(CN2C(=O)CC3(CCSC3)C2=O)o1", "stereo": "stereo unspecified", "Percent Effect": "21.05 and 40.41"}
{"compound": "CCOc1ccc(N2CCC(C(O)c3ccccc3)CC2)nn1", "stereo": "stereo unspecified", "Percent Effect": -13.77}
{"compound": "O=C(NC1CCCN(CCCc2ccccc2)C1)c1ccncc1", "stereo": "stereo unspecified", "Percent Effect": 15.71}
{"compound": "C=C(C)COc1ccc(C(=O)NCCn2c(C)cc(C)nc2=O)cc1", "Percent Effect": 28.65}
{"compound": "CC(C)c1csc(C(=O)N(C)c2ccc(Br)cn2)n1", "Percent Effect": "93.34 and 89.15"}
{"compound": "c1ccc(-c2nc3c(c(NCCc4c[nH]cn4)n2)CCNC3)cc1", "Percent Effect": "45.61 and 66.85"}
{"compound": "Cc1cc(-c2cnc(NCc3ccncc3)nc2C(C)C)on1", "Percent Effect": 54.58}
{"compound": "COCC(=O)NCCc1ccc(I)s1", "Percent Effect": 53.21}
{"compound": "CCCc1cc(=O)[nH]c(-n2nc(-c3cccs3)cc2N)n1", "Percent Effect": 12.72}
{"compound": "CCCN(C(=O)c1cnccn1)c1nc2c(s1)CCc1c-2cnn1C", "Percent Effect": 29.04}
{"compound": "OCCN1CCN(Cc2coc(-c3cccc(Cl)c3)n2)CC1", "Percent Effect": -17.2}
{"compound": "CCSc1ncc(CN2CCN(c3ncc(C)c(N)n3)CC2)cn1", "Percent Effect": 51.02}
{"compound": "O=C(NCC1CCOC1)N1CCN(Cc2ccc3c(c2)OCO3)CC1", "stereo": "stereo unspecified", "Percent Effect": 29.3}
{"compound": "CNC1CCCN(Cc2noc(C3CC3)n2)C1.Cl", "stereo": "stereo unspecified", "Percent Effect": 19.42}
{"compound": "CN1CCC(N2CC[C@H](c3nc4ccc(C(F)(F)F)cc4[nH]3)C2)CC1", "Percent Effect": "17.42 and 51.51"}
{"compound": "O=C(c1ccc(Br)o1)N1CCN(Cc2ccc(F)cc2)CC1", "Percent Effect": 54.41}
{"compound": "O=S(=O)(c1ccccc1N1CC(n2cccn2)C1)C(F)(F)F", "Percent Effect": 6.756}
{"compound": "Cc1nc(-c2cccc(N3CCC(N4CCCC4)CC3)c2)cs1", "Percent Effect": 66}
{"compound": "O=C1CCC2(CCN(Cc3ncccn3)CC2)CN1CCCO", "Percent Effect": 9.659}
{"compound": "O=C(O)C(F)(F)F.[H][C@]12CN(c3ccccc3)C(=O)[C@@]1([H])CN(C1CCOC1)C2", "stereo": "stereo partly specified", "Percent Effect": "11.93 and 50.58"}
{"compound": "CCC(C)N1CCc2nc(N3CCCC3)nc(NC(C)C)c2C1", "stereo": "stereo unspecified", "Percent Effect": -12.21}
{"compound": "O[C@@H]1CN(Cc2cc(Cl)cc3cccnc23)C[C@@H]1O", "Percent Effect": -0.5647}

The first 3 entries again:

- CO[C@H]1CCN(Cc2nccs2)C[C@@H]1Cc1ccccc1 | 55.46%
- CC(=O)Nc1ccc(SCC(O)COCc2ccco2)cc1 (stereo unspecified) | -4.486% and 1.171%
- CCOCCC(=O)Nc1cc(C(N)=O)ccc1N1CCCC(C)C1 (stereo unspecified) | -9.131%

Source: ChEMBL document CHEMBL3988442, “University of Dundee, Small-Polar-MMV Screening Library” (2021).